Assays:
Assay in all cases: cell-based or functional assay
[1] = target: T1, hemagglutinin of RG-A/Hong Kong/213/2004 (H5N1, clade 1) (influenza A virus A/Hong Kong/213/2004 …)
[2] = target: T2, hemagglutinin of A/goose/Guiyang/337/06 (H5N1, clade 4) (influenza A virus …)
[3] = target: T3, hemagglutinin of A/chicken/Henan/12/04 (H5N1, clade 8) (influenza A virus A/chicken/Henan/12/04 …)
[4] = target: T4, hemagglutinin of A/Hongkong/156/97 (H5N1, clade 0) (influenza A virus A/Hongkong/156/97 …, UniProt O56140 17-568)
[5] = target: T1, hemagglutinin of RG-A/Hong …; remark: listed apart in the source
[6] = target: T2, hemagglutinin of A/goose/Guiyang/337/06 …; remark: listed apart in the source
[7] = target: T3, hemagglutinin of A/chicken/Henan/12/04 …; remark: listed apart in the source
[8] = target: T4, hemagglutinin of A/Hongkong/156/97 …; remark: listed apart in the source

B1: murine monoclonal antibody 4C2 (antibody, V domains shown)
VH: QESGAELVRPGASVKLSCKDSGYTFTTYWMNWVKQRPEQGLEWIGRIDPYDSETHYNQKFKDKAILTVDKSSNTAYMQLSSLTSEDSAVYYCVRGGSTVAYFGVWGQG
VL: MTQSPSSMSVSLGDTVSITCHASQDISGHIGWLQQKPGKSFKGLIYHGTNLEDGVPSRFSGSGSGADFSLTISSLESEDFADYYCVQYVQFPWTFGGGTK
B1 was tested, and the HI titer [1] was 256 titer (mAb at 1 mg/ml), the HI titer [2] was 256 titer (mAb at 1 mg/ml) and the HI titer [3] was 512 titer (mAb at 1 mg/ml). The HI titer [4] was 256 titer (mAb at 1 mg/ml), the “Microneutralization titers against H5N1 strains” value (“Microneutralization titers” for short) [5] was 320 titer (mAb at 1 mg/ml; 100 TCID50 of virus) and the “Microneutralization titers” value [6] was 320 titer (mAb at 1 mg/ml; 100 TCID50 of virus). The “Microneutralization titers” value [7] was 640 titer (mAb at 1 mg/ml; 100 TCID50 of virus) and the “Microneutralization titers” value [8] was 320 titer (mAb at 1 mg/ml; 100 TCID50 of virus).
